# According to patent publication US20070036811A1:
# Biological target: HLA-A2 (human)
substance,measurement,value
HIV-1 pol476-484 ([…]) (peptide),C50 (peptide concentration for half maximal recovery of class I MHC),0.2 µM
